{"source": "patent US10358419B2", "about": "“1,3-dipolar [70]fulleropyrrolidinium iodide derivatives” (priority 2015, dated 2019)", "tested_on": "SupT1 cells", "settings": "SupT1, 24 hrs, MTT assay (FIG. 2)", "data": [{"substance": "mixture of α, β and γ-N—N-dimethyl[70]fulleropyrrolidinium iodide [Compound 2a]", "values": [{"measurement": "lethal concentration 50", "value": "over 32 μM"}]}]}
